Fitness of HIV-1 LAI Vif variants in SupT1-APOBEC3G cells

From the data files of Langley et al. 2025, preprint, doi:10.1101/2025.10.20.683452.

Scanned stretch, residues 12 to 115 of Vif from HIV-1 LAI (a laboratory-adapted subtype B strain):
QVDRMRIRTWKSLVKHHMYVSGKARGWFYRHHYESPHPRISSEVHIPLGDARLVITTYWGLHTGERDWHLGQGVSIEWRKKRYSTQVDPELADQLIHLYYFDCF

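Pooled viruses with one designed change each in Vif went through two 72 h rounds in SupT1 cells expressing APOBEC3G. Each of three replicates was sequenced after round two and set against the merged round-one pool.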

Scale: log2 enrichment, wild type = 0; negative values mean that the variant was depleted. Each entry names the wild-type residue, its position and the residue put in its place. All changes here are to isoleucine. The median of three replicates is given. Input reads are the counts in the merged round-one pool, before selection. Positive scores are uncertain; some enriched variants did not exclude APOBEC3G in a separate test. Some changes are missing from the data or left out. Replicates agree only moderately (rank correlation about 0.4-0.65); scores from under about 50 input reads tend to be too high.

* Q12I (input reads 448): -2.70
* V13I (input reads 881): -1.72
* D14I (input reads 139): -0.70
* M16I (input reads 102): 0.61
* R17I (input reads 406): -3.02
* R19I (input reads 308): -1.37
* T20I (input reads 426): -2.44
* W21I (input reads 307): -1.32
* K22I (input reads 24): 1.48
* S23I (input reads 69): 0.61
* L24I (input reads 629): -2.07
* K26I (input reads 524): -1.88
* H27I (input reads 27): -0.70
* M29I (input reads 433): 2.38
* Y30I (input reads 1337): -1.87
* V31I (input reads 202): -1.20
* S32I (input reads 211): -4.75
* G33I (input reads 368): -3.62
* A35I (input reads 1174): -2.01
* R36I (input reads 509): -1.10
* G37I (input reads 1161): -1.82
* F39I (input reads 706): -2.92
* Y40I (input reads 3667): -1.87
* R41I (input reads 551): -0.52
* H42I (input reads 10437): -3.18
* H43I (input reads 409): -1.83
* E45I (input reads 385): -2.02
* S46I (input reads 835): -1.01
* P47I (input reads 311): -1.40
* P49I (input reads 499): -2.69
* S52I (input reads 351): -3.50
* S53I (input reads 243): -0.72
* V55I (input reads 442): -3.92
* P58I (input reads 37): 0.67
* L59I (input reads 400): 0.40
* D61I (input reads 36): 0.26
* A62I (input reads 20): 1.31
* T67I (input reads 503): 0.15
* W70I (input reads 105): -1.38
* G71I (input reads 271): -1.74
* L72I (input reads 154): -3.46
* T74I (input reads 244): -1.03
* G75I (input reads 721): -1.58
* E76I (input reads 462): -4.64
* R77I (input reads 512): -0.94
* W79I (input reads 1426): -3.45
* G84I (input reads 21): -0.17
* V85I (input reads 72): 0.17
* S86I (input reads 540): -2.95
* W89I (input reads 528): -3.60
* R90I (input reads 401): -3.22
* K91I (input reads 381): -1.34
* K92I (input reads 488): -1.69
* S95I (input reads 741): -3.23
* Q97I (input reads 42): 3.67
* V98I (input reads 430): -2.20
* E101I (input reads 898): -2.43
* L102I (input reads 187): -3.33
* A103I (input reads 291): -3.19
* Q105I (input reads 309): -0.98
* H108I (input reads 394): 1.73
* Y111I (input reads 357): -3.12
* D113I (input reads 18): 1.25
* F115I (input reads 428): -1.85

Extract of 8 entries:

substitution,input reads,log2 enrichment (median)
W21I,307,-1.32
R90I,401,-3.22
S23I,69,0.61
A35I,1174,-2.01
Q105I,309,-0.98
E76I,462,-4.64
G75I,721,-1.58
V31I,202,-1.20